Data set [1] relates to BoNT/A cleavable peptide #115: [5-Fam]TRIDEANQRATK[DABCYL]-Nle.
In data set [2] the test system is BoNT/A cleavable peptide #116: [4-Mu]TRIDEANQRATK[DABCYL]-Nle.

This note sets out measurements from US20210255174.

On to “Botulinum neurotoxin type A (BoNT/A), printed without saying whether complex, holotoxin or light chain”, for which the Michaelis constant (KM) (commonly the concentration of substrate that gives half-maximal velocity) turned out to be 4.99 µM in data set [1] and 2.62 µM in data set [2].
